Pooled drug test results. Numbers come from NIAID ChemDB, via PubChem.

Shared fields: growth or infection tests; organism: HIV-1; method: MTT; endpoint: EC50

An empty or dashed field is not shown.

structure	cell line	mutations	strain or isolate	value
NC(=NCCCCNc1ccc2[nH]ccc2c1)N[N+](=O)[O-]	MT-4		IIIB	>431 µM
COc1ccc2nc3cc(Cl)ccc3c(NCC(C)N(C)C)c2c1	MT-4			>5.7 µM
O=C(/C=C/C=C/c1ccccc1)[Se]c1ccccc1	MT-2		LAI	2.9 µM
CC(C)Oc1cccc(-c2ccc3c(c2)SC(=N)N2CCCN=C32)c1	MT-4		IIIB	0.71 µM
COc1ncccc1C(=O)c1cccc(C#N)c1	MT-4		IIIB	56.25 µM
O=c1ccc2ccc(O)c(CN3CCN(Cc4c(O)ccc5ccc(=O)oc45)CC3)c2o1	MT-4			>20 µM
Cc1ccnc2c1NC(=O)c1cccnc1N2C1CC1	CEM		IIIB	0.17 µM
Cc1ccnc2c1NC(=O)c1cccnc1N2C1CC1	MT-4		Y181C (subtype B)	0.9 µg/mL
Cc1ccnc2c1NC(=O)c1cccnc1N2C1CC1	MT-4	K103N	IIIB	>10.1 µM
N=C1Sc2ncccc2C2=NCCCN12	MT-4		IIIB	7.9 µM
CCc1c(S(=O)(=O)Cc2cccc3ccccc23)cc(C)oc1=O	CEM		IIIB	>2 µM
O=C(CSc1sc(Cl)nc1-c1ccc(Br)cc1Br)Nc1ccccc1F	MT-4		IIIB	>33.18 µM
COc1ccc2[nH]cc(Cc3c(OC(C)=O)ccc4ccccc34)c2c1	MT-4			5 µM
COc1ccc2nc3cc(Cl)ccc3c(N[C@@H]3CCCN4CCCC[C@H]34)c2c1	MT-4			>9.3 µM
Cc1cc([N+](=O)[O-])ccc1NC(=O)CSc1sc(Cl)nc1-c1ccc(Br)cc1Br	MT-4	L100I	IIIB	2.58 µM
O=S1(=O)N=C(Nc2ccccc2Cl)C=C(Cc2cccc3ccccc23)N1	MT-4		IIIB	>154 µM
Cc1cn([C@H]2C[C@H](N=[N+]=[N-])[C@@H](CO)O2)c(=O)[nH]c1=O	C8166		A17	0.0161 µM
CC(=O)Nc1cccc(C#Cc2cc(C)c(Oc3ccnc(Nc4ccc(C#N)cc4)n3)c(C)c2)c1	MT-4	K103N	IIIB	0.036 µM
CC(=O)c1ccc2c(c1)SC(=N)N1CCCN=C21	MT-4		IIIB	6.6 µM
COc1ccc2nc3cc(Cl)ccc3c(N3CCN(c4ccccc4)CC3)c2c1	MT-4			>100 µM
Cc1cn([C@H]2C[C@H](N=[N+]=[N-])[C@@H](CO)O2)c(=O)[nH]c1=O	MT-4	F227L and V106A	IIIB	0.007 µM
N#Cc1cc([C@H]2C[C@H](N=[N+]=[N-])[C@@H](CO)O2)cc(=O)[nH]1	MT-4		ROD	>478 µM
CC(=O)Oc1ccc2ccccc2c1Cc1c[nH]c2ccc(Br)cc12	MT-4			11 µM
CCc1c(OCc2cccc3ccccc23)cc(C)oc1=O	CEM		IIIB	>0.4 µM
Cc1cc(C#Cc2cccc(N)c2)cc(C)c1Oc1ccnc(Nc2ccc(C#N)cc2)n1	MT-4	Y188L	IIIB	0.762 µM
N=C1Sc2ccccc2C2=NCCCN12	MT-4		IIIB	3.5 µM
Cc1cc(C)cc(C(=Nc2ccc(C(N)=O)cc2)c2cccnc2Cl)c1	MT-4		RES056	>34.03 µM
Cc1cc(N[C@@H](C)c2cccc3ccccc23)cc(=O)o1	CEM		IIIB	>10 µM
N=C1Sc2cc(-c3ccco3)ccc2C2=NCCCN12	MT-4		IIIB	0.77 µM
Cc1cn([C@H]2C[C@H](N=[N+]=[N-])[C@@H](CO)O2)c(=O)[nH]c1=O	MT-4		IIIB	0.0151 µM
COc1ccc2c(Cc3c(C)[nH]c4ccccc34)c(OC(C)=O)ccc2c1	MT-4			>18 µM
O=C1CCC(c2ccccc2)C(=O)N1CCCN1CCN(c2ncccn2)CC1	MT-4			>100 µM
C#Cc1ccc(Nc2nccc(Oc3c(C)cc(-c4cn(Cc5cccc([N+](=O)[O-])c5)nn4)cc3C)n2)cc1	MT-4	Y188L	IIIB	4.54 µM
Cc1cc(C)cc(C(=O)c2cccnc2Oc2ccc(N)cc2)c1	MT-4		RES056	>123 µM
O=S1(=O)N=C(Nc2ccc(F)c(F)c2F)C=C(Cc2ccccc2)N1	MT-4		IIIB	>198 µM
Cc1cc(-c2ccc(C#N)cc2)cc(C)c1Oc1ccnc(S(=O)(=O)CC(=O)Nc2ccc(C#N)cc2)n1	MT-4	Y188L	IIIB	0.122 µM
NC(N)=NCCCCNc1ccc2[nH]ccc2c1.O=S(O)O	MT-4		IIIB	>213 µM
CCN(CC)C(=O)N1CCN(C(=O)N2CCOCC2)CC1	MT-4		NL4-3	>125 µg/mL
Nc1ccccc1NC(=O)CSc1sc(Cl)nc1-c1ccc(Br)cc1Br	MT-4	E138K	IIIB	7.65 µM
CC(=O)Oc1ccc2cc(Br)ccc2c1Cc1c[nH]c2ccc(Br)cc12	MT-4			7 µM
CC(C)Nc1cccnc1N1CCN(C(=O)c2cc3cc(NS(C)(=O)=O)ccc3[nH]2)CC1	MT-4	K103N	IIIB	2.444 µM
CCNC(N)=NCCNc1ccc2[nH]ccc2c1	MT-4		IIIB	>47.28 µM
CC1CN=C2c3ccccc3SC(=N)N2C1	MT-4		IIIB	1 µM
NC(=NCC(=O)NCCNc1ccc2[nH]ccc2c1)N[N+](=O)[O-]	MT-4		IIIB	>391 µM
Cc1cc(C)cc(C(=O)c2cccnc2Nc2ccc(C#N)cc2)c1	MT-4		IIIB	>128 µM
O=C1CCC(c2ccccc2)C(=O)N1CCCN1CCN(c2ccccc2O)CC1	MT-4			>100 µM
Cc1ccc(/C=C/C=C/C(=O)[Se]c2ccccc2)cc1	MT-2		LAI	4.3 µM
CCNC(N)=NCCCNc1ccc2[nH]ccc2c1	MT-4		IIIB	>52.67 µM
Nc1ncnc2c1ncn2[C@H]1OC[C@@](F)(CCP(=O)(O)O)[C@H]1F	PBMC		LAI	12 µM
Cc1cc(C#Cc2cccc(N)c2)cc(C)c1Oc1ccnc(NC2CCN(Cc3ccc(C(N)=O)cc3)CC2)n1	MT-4	Y181C	IIIB	0.032 µM
O=C1CCC(c2ccccc2)C(=O)N1CCCCN1CCN(c2ccccc2O)CC1	MT-4			>100 µM
COc1ccnc2[nH]cc(C(=O)C(=O)N3CCN(C(=O)c4ccccc4)C[C@H]3C)c12	MT-2		IIIB	0.32 µM
Cc1cc(/C=C/C#N)cc(C)c1Oc1ccnc(S(=O)(=O)CC(=O)Nc2ccc(F)cc2)n1	MT-4	F227L V106A		2.198 µM
CN(C)C(=O)N1CCN(C(=O)N2CCCC2)CC1	MT-4		NL4-3	>125 µg/mL
Oc1ccc2cc(Br)ccc2c1CN1CCN(Cc2c(O)ccc3cc(Br)ccc23)CC1	MT-4			>100 µM
Cc1cc([N+](=O)[O-])ccc1NC(=O)CSc1sc(N)nc1-c1ccc(Br)cc1Br	MT-4		IIIB	>30.81 µM
Cc1cc(-c2ccc(C#N)cc2)cc(C)c1Oc1ccnc(S(=O)(=O)CC(=O)NCc2ccc(Br)cc2)n1	MT-4		IIIB	>3.57 µM
COc1ccc2ccc(OC(C)=O)c(Cc3c[nH]c4ccc(OC)cc34)c2c1	MT-4			19 µM
COc1ccc2nc3cc(Cl)ccc3c(NCCN3CCCC(O)C3)c2c1	MT-4			>1.5 µM
Cc1cc(C)cc(C(=O)c2cccnc2Nc2cnccn2)c1	MT-4		IIIB	>240 µM
Cc1cc(C#Cc2cccnc2)cc(C)c1Oc1ccnc(Nc2ccc(C#N)cc2)n1	MT-4	K103N	IIIB	0.01 µM
O=C(/C=C/c1ccc(O)cc1)[Se]c1ccccc1	MT-2		LAI	4.5 µM
COc1c(C)c2c(c(O)c1C/C=C(\C)CCC(=O)O)C(=O)OC2	MT-4			>0.2 µM
CCN(CC)C(=O)N1CCN(C(=O)N(C)CCN2CCCC2)CC1	MT-4		NL4-3	36.4 µg/mL
COC(=O)[C@H](C)NP(=O)(OC[C@H]1O[C@@H](n2cc(C)c(=O)[nH]c2=O)CC1N=[N+]=[N-])Oc1ccccc1	MT-4		IIIB	0.065 µM
O=S1(=O)NC(Cc2ccccc2)=CC(=NCc2ccccc2)N1	MT-4		IIIB	>238 µM
Cc1cc(C)cc(C(=O)c2cccnc2Oc2ccc(C(=O)O)cc2)c1	MT-4		IIIB	>150 µM
O=C(CSc1sc(Cl)nc1-c1ccc(Br)cc1Br)Nc1cccnc1Cl	MT-4	K103N	IIIB	>23.24 µM
Cc1cn([C@H]2C[C@H](N=[N+]=[N-])[C@@H](CO)O2)c(=O)[nH]c1=O	MT-4		K103N (subtype B)	0.0005 µg/mL
Nc1ncnc2c1ncn2CCOCP(=O)(O)O	PBMC		LAI	0.54 µM
CCc1c(NCc2cccc3ccccc23)cc(C)oc1=O	CEM		IIIB	>10 µM
O=S1(=O)N=C(Nc2ccc(Br)cc2)C=C(Cc2cccc3ccccc23)N1	MT-4		IIIB	23 µM
O=C(/C=C/C=C/c1ccc(O)c(O)c1)[Se]c1ccccc1	MT-2		LAI	6.9 µM
Cc1cc(C#N)cc(C)c1Oc1nc(Nc2ccc(C#N)cc2)nc(N)c1Br	MT-4	K103N	IIIB	0.003 µM
CCN(CC)C(=O)N1CCN(C(=O)N2CCN(C)CC2)CC1	MT-4		NL4-3	>125 µg/mL
Cc1cc(N[C@@H](C)c2cccc3ccccc23)c(C(=O)C(Cl)Cl)c(=O)o1	CEM		IIIB	>2 µM
O=S1(=O)N=C(Nc2ccc(Cl)cc2)C=C(Cc2cccc3ccccc23)N1	MT-4		IIIB	26 µM
C#Cc1ccc(Nc2nccc(Oc3c(C)cc(-c4cn(Cc5ccc(C(N)=O)cc5)nn4)cc3C)n2)cc1	MT-4	Y181C	IIIB	0.56 µM
O=C(/C=C/c1ccccc1)[Se]c1ccccc1	MT-2		LAI	3.1 µM
Cc1ccc(CN=C2C=C(Cc3ccc4ccccc4c3)NS(=O)(=O)N2)cc1	MT-4		IIIB	>144 µM
Cc1cc(C#Cc2cccc(N)c2)cc(C)c1Oc1ccnc(NC2CCN(Cc3cccc(C(N)=O)c3)CC2)n1	MT-4	E138K	IIIB	0.027 µM
Cc1cc(SCc2cccc3ccccc23)cc(=O)o1	CEM		IIIB	>10 µM
C#Cc1ccc(Nc2nccc(Oc3c(C)cc(-c4cn(-c5ccc(C(=O)OC)cc5)nn4)cc3C)n2)cc1	MT-4	K103N	IIIB	0.022 µM
O=C1CCC(c2ccccc2)C(=O)N1CCCCN1CCN(Cc2ccccc2)CC1	MT-4			>100 µM
Cc1cc(C#Cc2ccccc2)cc(C)c1Oc1ccnc(Nc2ccc(C#N)cc2)n1	MT-4	F227L + V106A	IIIB	>12.5 µM
O=C(CSc1sc(Cl)nc1-c1ccc(Br)cc1Br)Nc1ccc(Cl)cc1Cl	MT-4		IIIB	>159 µM
CCCCOC(=O)N1CCN(C(=O)N(CC)CC)CC1	MT-4		NL4-3	>58.4 µg/mL
Nc1ncnc2c1ncn2CCOCP(=O)(O)O	PBMC		LAI	5.2 µM
Cc1ccnc2c1NC(=O)c1cccnc1N2C1CC1	MT-4	L100I	IIIB	1.92 µM
Cc1ccc2c(c1)SC(=N)N1CCCN=C21	MT-4		IIIB	5.1 µM
CN(C)C(=O)N1CCN(C(=O)N(C)CCN2CCCC2)CC1	MT-4		NL4-3	72 µg/mL
Nc1ncnc2c1ncn2[C@H]1OC[C@@](F)(C=CP(=O)(O)O)[C@H]1F	PBMC		LAI	31 µM
Cc1ccnc2c1NC(=O)c1cccnc1N2C1CC1	MT-4	L100I	IIIB	0.705 µM

The last 8 rows once more:

structure | cell line | mutations | strain or isolate | value
O=C(CSc1sc(Cl)nc1-c1ccc(Br)cc1Br)Nc1ccc(Cl)cc1Cl | MT-4 |  | IIIB | >159 µM
CCCCOC(=O)N1CCN(C(=O)N(CC)CC)CC1 | MT-4 |  | NL4-3 | >58.4 µg/mL
Nc1ncnc2c1ncn2CCOCP(=O)(O)O | PBMC |  | LAI | 5.2 µM
Cc1ccnc2c1NC(=O)c1cccnc1N2C1CC1 | MT-4 | L100I | IIIB | 1.92 µM
Cc1ccc2c(c1)SC(=N)N1CCCN=C21 | MT-4 |  | IIIB | 5.1 µM
CN(C)C(=O)N1CCN(C(=O)N(C)CCN2CCCC2)CC1 | MT-4 |  | NL4-3 | 72 µg/mL
Nc1ncnc2c1ncn2[C@H]1OC[C@@](F)(C=CP(=O)(O)O)[C@H]1F | PBMC |  | LAI | 31 µM
Cc1ccnc2c1NC(=O)c1cccnc1N2C1CC1 | MT-4 | L100I | IIIB | 0.705 µM

ECn: concentration that inhibits the pathogen or its effect by n%. Lines come from different laboratories, so protocols vary.